Pooled drug test results. Numbers come from NIAID ChemDB, via PubChem.

Common to all: enzyme or target tests; organism: HIV-1; target: Protease

An empty or dashed field is not shown. Lines come from different laboratories, so protocols vary. ICn: concentration for n% inhibition.

smiles | measure | strain or isolate | method | result
N#CN=C1N(CC2CCCC2)[C@H](Cc2ccccc2)[C@H](O)[C@@H](O)[C@@H](Cc2ccccc2)N1CC1CCCC1 | Ki | - | - | 0.0011 µM
Cc1cc(SC2=C(O)CC(C)(CCc3ccc(O)cc3)OC2=O)c(C(C)(C)C)cc1OS(=O)(=O)c1cn(C)cn1 | IC50 | - | HPLC | 0.002 µM
CC(C)(C)OC(=O)[C@@H]1CCCN1C(=O)[C@@H](O)[C@H](Cc1ccccc1)NC(=O)[C@H](CC(N)=O)NC(=O)OCc1ccccc1 | IC50 | - | HPLC | 10 µM
O=c1c(-c2ccc(O)cc2)coc2cc(OC3OC(CO)C(O)C(O)C3O)cc(O)c12 | IC50 | - | substrate cleavage / fluorescence | 360 µg/mL
CC(C)(C)NC(=O)[C@@H]1CSCN1C(=O)[C@@H](O)[C@H](Cc1ccccc1)NC(=O)[C@H](CC(N)=O)NC(=O)COc1cccc2ccccc12 | IC50 | - | HPLC | 0.024 µM
CC(C)(C)OC(=O)N[C@@H]1C[C@H](O)[C@H](O)CN(Cc2ccccc2)C1=O | IC50 | - | fluorescence | 95.3 µM
CC[C@H](C)[C@@H]1NC(=O)[C@@H](NC[C@@H](O)[C@H](Cc2ccccc2)NC(=O)[C@@H](NC(=O)[C@H](CC(C)C)NC(C)=O)C(C)C)Cc2ccc(cc2)OCCCNC1=O | Ki | - | fluorescence | 0.0006 µM
CC(C)C[C@H](NC(=O)[C@H](Cc1ccc(N)cc1)NC(=O)CCCCCCCCCCCCCCC(=O)N[C@@H](CC(N)=O)C(=O)N[C@@H](Cc1ccccc1)C(=O)O)C(=O)N[C@@H](Cc1ccccc1)C(N)=O | IC50 | - | - | 1.01 µM
Cc1cc(SC2=C(O)CC(CCc3ccc(O)cc3)(C3CCCCC3)OC2=O)c(C(C)(C)C)cc1OS(=O)(=O)N(C)C | IC50 | - | - | 0.02 µM
CC[C@H](C)[C@@H]1NC(=O)[C@@H](NC[C@@H](O)[C@H](Cc2ccccc2)NC(=O)[C@@H](NC(=O)[C@H](CC(C)C)NC(C)=O)C(C)C)Cc2ccc(cc2)OCCCCNC1=O | Ki | - | fluorescence | 0.0015 µM
C=CCN1C(=O)N(CC=C)[C@H](Cc2ccccc2)[C@H](O)[C@@H](O)[C@H]1Cc1ccccc1 | Ki | - | - | 0.003 µM
C=C(C)C1CC[C@]2(C)C(CC=C3C4[C@H](C)[C@@H](C)CC[C@]4(C)CC[C@]32C)[C@@]1(C)CCC(=O)O | IC50 | - | substrate cleavage / fluorescence | 360 µg/mL
CC(C)C[C@H](NC(=O)[C@@H](NC(=O)CCCCCCCCCCCCCCC(=O)N[C@@H](CC(N)=O)C(=O)N[C@@H](Cc1ccccc1)C(=O)O)C(C)O)C(=O)N[C@@H](Cc1ccc2ccccc2c1)C(N)=O | IC50 | - | - | 3.4 µM
CC(=O)N[C@H](CSc1cccc2ccccc12)C(=O)N[C@@H](Cc1ccccc1)[C@H](O)C(=O)N1CSC(C)(C)[C@H]1C(=O)NCc1ccccc1C | IC50 | - | - | <0.001 µM
CC(C)(C)NC(=O)[C@@H]1CCCN1C(=O)[C@@H](O)[C@H](Cc1ccccc1)NC(=O)[C@H](CC(N)=O)NC(=O)c1cc2ccccc2[nH]1 | Ki | IIIB | HPLC | 0.018 µM
CC[C@H](C)[C@H](NC(=O)[C@@H](C[C@H](O)[C@H](CC1CCCCC1)NC(=O)CC(C)(C)C)C(C)C)C(=O)NCc1ccccn1 | Ki | - | - | 0.07 µM
C=CCc1ccc(O)c(-c2cc(C(OCC)C(C)O)ccc2O)c1 | IC50 | - | FRET | 200 µM
COC(=O)N[C@H](C(=O)N[C@@H](Cc1ccccc1)[C@@H](O)CN(Cc1ccc(-c2ccccn2)cc1)NC(=O)[C@@H](NC(=O)OC)C(C)(C)C)C(C)(C)C | IC50 | - | substrate cleavage / fluorescence | 0.00002 µM
O=C(O)/C=C/c1ccc(O)c(O)c1 | IC50 | - | - | >100 µM
CC(C)C[C@H](NC(=O)[C@@H](NC(=O)CCCCCCCCCCCCCCC(=O)N[C@@H](CC(N)=O)C(=O)N[C@@H](Cc1ccc(Br)cc1)C(=O)O)C(C)O)C(=O)N[C@@H](Cc1ccccc1)C(N)=O | IC50 | - | - | 1.2 µM
CC[C@H](C)[C@H](NC(=O)[C@@H]1CCCN1C[C@@H](O)[C@H](Cc1ccccc1)NC(=O)[C@H](CC(N)=O)NC(=O)[C@H](CC(C)C)NC(=O)[C@H](CO)NC(C)=O)C(=O)N[C@H](C(=O)OC)C(C)C | Ki | - | fluorescence | 0.013 µM
O=c1c(O)c(-c2ccc(O)c(O)c2)oc2cc(O)ccc12 | IC50 | - | fluorescence | 50 µM
CC(C)[C@H](NC(=O)N(C)Cc1ccccn1)C(=O)N[C@@H](Cc1ccccc1)C(=O)C(F)(F)[C@H](Cc1ccccc1)NC(=O)[C@@H](NC(=O)N(C)Cc1ccccn1)C(C)C | IC50 | - | fluorescence | 0.0004 µM
O=c1c(O)c(-c2ccc(O)cc2O)oc2cc(O)cc(O)c12 | IC50 | - | fluorescence | 24 µM
CC(C)(C)NC(=O)[C@@H]1CSCN1C(=O)[C@@H](O)[C@H](Cc1ccccc1)NC(=O)[C@@H](NC(=O)COc1cccc2ccccc12)C(C)(C)C | IC50 | - | HPLC | 0.0041 µM
CC(C)[C@H](NC(=O)[C@H](CCCN=C(N)N)NC(=O)N[C@@H](Cc1ccccc1)C(=O)O)C(=O)N[C@H](C=O)Cc1ccccc1 | IC50 | - | - | 2 µM
O=C1N(CC2CC2)CC[C@@H](O)[C@@H](Cc2ccccc2)N1CC1CC1 | Ki | - | - | >12.5 µM
CC(C)C[C@H](NC(=O)[C@@H](NC(=O)CCCCCCCCCCCCCCC(=O)N[C@@H](Cc1ccc(O)cc1)C(=O)N[C@@H](Cc1ccccc1)C(=O)O)C(C)O)C(=O)N[C@@H](Cc1ccccc1)C(N)=O | Ki | - | - | 3 µM
CC(=O)O[C@H]1CC(=O)OC(C)(C)[C@@H]2CC(=O)[C@]3(C)[C@H](CC[C@@]4(C)[C@H](c5ccoc5)OC(=O)[C@H]5O[C@]543)[C@@]12C | IC50 | - | - | <20 µM
CC(C)[C@H](NC(=O)[C@H](CCCN=C(N)N)NC(=O)N[C@@H](Cc1ccccc1)C(=O)O)C(=O)N[C@@H](C=O)Cc1ccccc1 | IC50 | - | - | 32 µM
O=C1N(Cc2ccc3ccccc3c2)[C@H](Cc2ccccc2)[C@H](O)[C@@H](O)[C@@H](Cc2ccccc2)N1Cc1ccc2ccccc2c1 | Ki | - | - | 0.002 µM
Cc1cccc(COC(=O)N[C@H](C(=O)N[C@@H](Cc2ccccc2)C(=O)C(F)(F)[C@H](Cc2ccccc2)NC(=O)[C@@H](NC(=O)OCc2cccc(C)n2)C(C)C)C(C)C)n1 | IC50 | - | fluorescence | 0.00005 µM
CC(C)(C)NC(=O)[C@@H]1CCCN1C(=O)[C@@H](O)[C@H](Cc1ccccc1)NC(=O)[C@H](CC(N)=O)NC(=O)OCc1ccccc1 | Ki | IIIB | HPLC | 0.0575 µM
CC(C)[C@H](NC(=O)CCc1ccccn1)C(=O)N[C@@H](Cc1ccccc1)C(=O)C(F)(F)[C@H](Cc1ccccc1)NC(=O)[C@H](NC(=O)CCc1ccccn1)C(C)C | IC50 | - | fluorescence | 0.00033 µM
CC(C)(C)OC(=O)N[C@@H](Cc1ccccc1)[C@H](O)[C@H]1O[C@@H]1Cc1ccccc1 | IC50 | - | fluorescence | 570 µM
CC(C)(C)OC(=O)N[C@H]1C[C@H]2O[C@H]2[C@H](Cc2ccccc2)N(Cc2ccccc2)C1=O | IC50 | - | fluorescence | 15.7 µM
CC[C@H](C)[C@H](NC(=O)[C@@H]1CCCN1C[C@H](O)[C@H](Cc1ccccc1)NC(=O)[C@H](CC(N)=O)NC(=O)[C@H](CC(C)C)NC(C)=O)C(=O)N[C@H](C(N)=O)C(C)C | Ki | - | fluorescence | 0.003 µM
CC[C@H](C)/C=C(C)/C=C/C1=CC2=C(Cl)C(=O)[C@](C)(OC(C)=O)C(=O)C2=CO1 | IC50 | - | HPLC | 62.7 µg/mL
CC(C)(C)OC(=O)N[C@H]1C[C@@H](O)[C@@H](O)[C@H](Cc2ccccc2)N(Cc2ccccc2)C1=O | IC50 | - | fluorescence | 55.3 µM
CC(C)(C)NC(=O)C1(CCc2ccccc2)OC(=O)C(CCc2ccccc2)=C1O | IC50 | - | fluorescence | 3 µM

Repeating the final 4 entries:

smiles | measure | strain or isolate | method | result
CC[C@H](C)[C@H](NC(=O)[C@@H]1CCCN1C[C@H](O)[C@H](Cc1ccccc1)NC(=O)[C@H](CC(N)=O)NC(=O)[C@H](CC(C)C)NC(C)=O)C(=O)N[C@H](C(N)=O)C(C)C | Ki | - | fluorescence | 0.003 µM
CC[C@H](C)/C=C(C)/C=C/C1=CC2=C(Cl)C(=O)[C@](C)(OC(C)=O)C(=O)C2=CO1 | IC50 | - | HPLC | 62.7 µg/mL
CC(C)(C)OC(=O)N[C@H]1C[C@@H](O)[C@@H](O)[C@H](Cc2ccccc2)N(Cc2ccccc2)C1=O | IC50 | - | fluorescence | 55.3 µM
CC(C)(C)NC(=O)C1(CCc2ccccc2)OC(=O)C(CCc2ccccc2)=C1O | IC50 | - | fluorescence | 3 µM